A mixed list of measured activities; the numbers were collected in NIAID ChemDB.

Shared fields: growth or infection tests; organism: HIV-1; cells: MT-4; read-out: EC50

Lines come from different laboratories, so protocols vary.

{"SMILES": "CN(C)C=Nc1ccn([C@H]2C[C@H](CO)[C@@H](CO)O2)c(=O)n1", "strain or isolate": "IIIB", "read by": "XTT", "result": "11.4 µM"}
{"SMILES": "Cc1cc(/C=C/C#N)cc(C)c1Oc1nc(NC2CCN(Cc3ccccc3Cl)CC2)nc2ccsc12", "strain or isolate": "IIIB", "mutations": "NNRTI-resistant (RT E138K)", "read by": "MTT", "result": "0.158 µM"}
{"SMILES": "Cc1nc(NC(=O)NC2CCCCCCC2)c(C)c(C(OC(C)(C)C)C(=O)O)c1-c1ccc2c(c1)CCCO2", "strain or isolate": "IIIB", "read by": "MTT", "result": "0.014 µM"}
{"SMILES": "Cc1cc(C#N)cc(C)c1Oc1nc(Nc2ccc(C#N)cc2)nc(N)c1Br", "strain or isolate": "IIIB", "mutations": "K103N", "read by": "MTT", "result": "0.0032 µM"}
{"SMILES": "O=c1nc(N=CN2CCCCC2)ccn1[C@H]1C[C@H](CO)[C@@H](CO)O1", "strain or isolate": "TIBO-resistant", "read by": "XTT", "result": "4.5 µM"}
{"SMILES": "Nc1nc(=O)n([C@H]2C=C[C@@H](CO)O2)cc1F", "strain or isolate": "NL4-3 WT", "read by": "p24", "result": "<1.2 µM"}
{"SMILES": "Nc1nc(=S)c2nc(-c3ccccn3)c(-c3ccccn3)nc2[nH]1", "strain or isolate": "IIIB", "read by": "cytopathic effect / MTT / absorbance", "result": ">47.64 µM"}
{"SMILES": "CSc1nsc(-c2ccc(OCc3ccccc3)cc2)c1C#N", "strain or isolate": "IIIB", "read by": "cytopathic effect", "result": ">125 µg/mL"}
{"SMILES": "COc1ccc(-c2c(C)nc(NC(=O)NC3CCCCC3)c(C)c2[C@H](OC(C)(C)C)C(=O)O)cc1", "strain or isolate": "IIIB", "read by": "MTT", "result": "0.01 µM"}
{"SMILES": "O=C1c2c(O)c3n(c2CCN1Cc1ccc(F)cc1)CCN(Cc1ccc(F)cc1)C3=O", "read by": "p24", "result": "<10 µM"}
{"SMILES": "[N-]=[N+]=NC[C@@H](CO)OCn1nc(-c2ccccc2)c(=O)[nH]c1=O", "read by": "p24", "result": ">1000 µM"}
{"SMILES": "Clc1nccc2nc(-c3cccs3)cnc12", "strain or isolate": "IIIB", "read by": "cytopathic effect / MTT / absorbance", "result": ">5.23 µM"}
{"SMILES": "CCP(=O)(O)Cc1cccc(Nc2cc(-c3ccccc3OCc3ccccc3)ncn2)c1", "read by": "virus yield", "result": "0.163 µM"}
{"SMILES": "Nc1ccn([C@H]2C=C[C@@H](CO)O2)c(=O)n1", "strain or isolate": "IIIB", "read by": "antigen", "result": "<0.5 µM"}
{"SMILES": "CC1=C(C)CC(COCP(=O)(OCCSC(=O)C(C)(C)C)OCCSC(=O)C(C)(C)C)(n2cnc3c(N)ncnc32)C1", "read by": "XTT", "result": "41 µM"}
{"SMILES": "Cc1cn(COC(CO)CN=[N+]=[N-])c(=O)[nH]c1=O", "read by": "p24", "result": ">1000 µM"}
{"SMILES": "CCOP(=O)(CC)Cc1cccc(Nc2cc(-c3ccccc3OCc3ccccc3)ncn2)c1", "read by": "virus yield", "result": "0.212 µM"}
{"SMILES": "Cc1cn([C@H]2C=C[C@@H](CO)O2)c(=O)[nH]c1=O", "strain or isolate": "XM-ABC-resistant", "mutations": "RT-K65R L74V M184V Y115F", "read by": "p24", "result": "<0.8 µM"}
{"SMILES": "Cc1cc(/C=C/C#N)cc(C)c1Oc1nc(NC2CCN(Cc3ccc(C#N)cc3)CC2)nc2ccsc12", "strain or isolate": "IIIB", "mutations": "NNRTI-resistant (RT L100I)", "read by": "MTT", "result": "0.00736 µM"}
{"SMILES": "COc1ccc(C(=O)CSc2nc3nc(C4=CCC=C=N4)c(-c4ccccn4)nc3c(=O)[nH]2)cc1", "strain or isolate": "IIIB", "read by": "cytopathic effect / MTT / absorbance", "result": ">36.1 µM"}
{"SMILES": "Cc1nc(Nc2cnc3ccccc3c2)c(C)c(C(OC(C)(C)C)C(=O)O)c1-c1ccc2c(c1)CCCO2", "strain or isolate": "IIIB", "read by": "MTT", "result": "0.013 µM"}
{"SMILES": "CCOC(=O)Sc1nsc(-c2ccccc2)c1C#N", "strain or isolate": "IIIB", "read by": "cytopathic effect", "result": "15.2 µg/mL"}
{"SMILES": "Cc1ccc(-c2c(C)nc(Nc3cnc4ccccc4c3)c(C)c2C(OC(C)(C)C)C(=O)O)cc1C", "strain or isolate": "IIIB", "read by": "MTT", "result": "0.012 µM"}
{"SMILES": "O=c1nc(N=CN2CCOCC2)ccn1[C@H]1C[C@H](CO)[C@@H](CO)O1", "strain or isolate": "IIIB", "read by": "XTT", "result": "3.2 µM"}
{"SMILES": "CC1=C(C)CC(COCP(=O)(O)O)(n2ccc(N)nc2=O)C1", "read by": "XTT", "result": "99 µM"}
{"SMILES": "Cc1nc(NC(=O)NC2CCCCCC2)c(C)c(C(OC(C)(C)C)C(=O)O)c1-c1ccc2c(c1)CCCO2", "strain or isolate": "IIIB", "read by": "MTT", "result": "0.013 µM"}
{"SMILES": "CCOP(=O)(CC)Cc1cccc(Nc2cc(-c3ccccc3OC)ncn2)c1", "read by": "virus yield", "result": "0.197 µM"}
{"SMILES": "Cc1cc(/C=C/C#N)cc(C)c1Oc1nc(NC2CCN(Cc3ccc(F)cc3)CC2)nc2ccsc12", "strain or isolate": "IIIB", "mutations": "NNRTI-resistant (RT L100I)", "read by": "MTT", "result": "0.0143 µM"}
{"SMILES": "O=c1[nH]c(=S)c2nc(-c3ccccn3)c(-c3ccccn3)nc2[nH]1", "strain or isolate": "IIIB", "read by": "cytopathic effect / MTT / absorbance", "result": ">112 µM"}
{"SMILES": "C/C=C/C=C/C=NC=Nc1ccn([C@H]2C[C@H](CO)[C@@H](CO)O2)c(=O)n1", "strain or isolate": "TIBO-resistant", "read by": "XTT", "result": "10.8 µM"}
{"SMILES": "Cc1ccnc2c1NC(=O)c1cccnc1N2C1CC1", "strain or isolate": "IIIB", "mutations": "Y181C", "read by": "MTT", "result": "10 µM"}
{"SMILES": "CCOS(=O)c1nsc(-c2ccc(OCc3ccccc3)cc2)c1C#N", "strain or isolate": "IIIB", "read by": "cytopathic effect", "result": ">125 µg/mL"}
{"SMILES": "NC1=NC2C(N=CN2[C@H]2C[C@@H](CCP(=O)(O)O)CO2)C(=O)N1", "read by": "MTT", "result": "60.2 µg/mL"}
{"SMILES": "[N-]=[N+]=NCC(CO)OCn1nc(Cc2ccccc2)c(=O)[nH]c1=O", "read by": "p24", "result": ">1000 µM"}
{"SMILES": "CCOC(=O)c1ccc(CN2CCC(Nc3nc(Oc4c(C)cc(C#N)cc4C)c4ccsc4n3)CC2)cc1", "strain or isolate": "RES056", "read by": "MTT", "result": "40.9 µM"}
{"SMILES": "O=c1[nH]cnc2ncc(-c3cccs3)nc12", "strain or isolate": "IIIB", "read by": "cytopathic effect / MTT / absorbance", "result": ">48.22 µM"}
{"SMILES": "Cc1cc(C#N)cc(C)c1Oc1nc(NC2CCC(NCc3ccc(O)cc3)CC2)nc2ccsc12", "strain or isolate": "IIIB", "mutations": "NNRTI-resistant (RT Y181C)", "read by": "MTT", "result": ">20.1 µM"}
{"SMILES": "Cc1cn([C@H]2C[C@H](N=[N+]=[N-])[C@@H](CO)O2)c(=O)[nH]c1=O", "mutations": "MDR (74V 41L 106A 215Y)", "read by": "MTT", "result": "0.08 µM"}
{"SMILES": "CC(C)(C)OC(=O)N1C2C3(CO)C(c4ccccc4)C4(CO)C1C1(CO)C(c5ccccc5)C2(CO)C3N(C(=O)OC(C)(C)C)C41", "strain or isolate": "IIIB", "read by": "cytopathic effect / MTT", "result": ">0.083 µM"}
{"SMILES": "Clc1nccc2nc(-c3ccccn3)c(-c3ccccn3)nc12", "strain or isolate": "IIIB", "read by": "cytopathic effect / MTT / absorbance", "result": ">67.36 µM"}
{"SMILES": "CC(C)N(C=Nc1ccn([C@H]2C[C@H](CO)[C@@H](CO)O2)c(=O)n1)C(C)C", "strain or isolate": "TIBO-resistant", "read by": "XTT", "result": "4 µM"}
{"SMILES": "CC(C)c1nc(CN(C)C(=O)N[C@H](C(=O)N[C@@H](Cc2ccccc2)C[C@H](O)[C@H](Cc2ccccc2)NC(=O)OCc2cncs2)C(C)C)cs1", "strain or isolate": "IIIB", "read by": "cytopathic effect", "result": "0.039 µg/mL"}
{"SMILES": "COc1ccccc1-c1cc(Nc2cccc(P(=O)(O)O)c2)ncn1", "read by": "virus yield", "result": "0.429 µM"}
{"SMILES": "CCOCn1c(Cc2ccccc2)c(C(C)C)c(=O)[nH]c1=O", "strain or isolate": "IIIB", "read by": "cytopathic effect / MTT", "result": "0.014 µM"}
{"SMILES": "Cc1cc(C#N)cc(C)c1Oc1nc(NC2CCN(Cc3ccc(S(N)(=O)=O)cc3)CC2)nc2sccc12", "strain or isolate": "IIIB", "mutations": "NNRTI-resistant (RT Y188L)", "read by": "MTT", "result": "0.00763 µM"}
{"SMILES": "N#Cc1c(SCCCCSc2nsc(-c3ccccc3)c2C#N)nsc1-c1ccccc1", "strain or isolate": "IIIB", "read by": "cytopathic effect", "result": ">125 µg/mL"}

Repeating the final 5 entries:

CC(C)c1nc(CN(C)C(=O)N[C@H](C(=O)N[C@@H](Cc2ccccc2)C[C@H](O)[C@H](Cc2ccccc2)NC(=O)OCc2cncs2)C(C)C)cs1 ; strain or isolate: IIIB ; read by: cytopathic effect ; result: 0.039 µg/mL
COc1ccccc1-c1cc(Nc2cccc(P(=O)(O)O)c2)ncn1 ; read by: virus yield ; result: 0.429 µM
CCOCn1c(Cc2ccccc2)c(C(C)C)c(=O)[nH]c1=O ; strain or isolate: IIIB ; read by: cytopathic effect / MTT ; result: 0.014 µM
Cc1cc(C#N)cc(C)c1Oc1nc(NC2CCN(Cc3ccc(S(N)(=O)=O)cc3)CC2)nc2sccc12 ; strain or isolate: IIIB ; mutations: NNRTI-resistant (RT Y188L) ; read by: MTT ; result: 0.00763 µM
N#Cc1c(SCCCCSc2nsc(-c3ccccc3)c2C#N)nsc1-c1ccccc1 ; strain or isolate: IIIB ; read by: cytopathic effect ; result: >125 µg/mL

ECn: concentration that inhibits the pathogen or its effect by n%.